Measured values from several laboratories, pooled; numbers as filed in NIAID ChemDB.

Common to all: growth or infection tests; organism: Mycobacterium avium

Conditions beyond the fields shown may differ between rows. A number after MIC or MFC names an inhibition level or a share of isolates. Two numbers with a dash give a range or band. Blank or dashed fields: not listed here.

compound,strain or isolate,read-out,setting,method,value
Fc1ccc2oc(=S)n(-c3ccc(Br)cc3)c(=S)c2c1,MY330/88,MIC,14 d,-,16 µM
CCCCOc1ccc2nccc(NN)c2c1,ATCC 25291,MIC,-,-,25 µg/mL
CC(C)N=C(N)/N=C(\N)NOCCCOc1ccc(Cl)c(Cl)c1,LPR,MIC,-,-,16.6 µg/mL
C[C@@H](NC(=O)OCc1ccccc1)c1cnc(-c2ccccc2)[nH]1,MY330/88,MIC,21 d,-,250 µM
O=C(O)c1cn(C2CC2)c2c(Cl)c(N3C[C@@H]4CCCN[C@@H]4C3)c(F)cc2c1=O,51 strains,MIC90,-,-,0.5 µg/mL
Fc1cccc(-n2c(=S)oc3ccc(Cl)cc3c2=S)c1,MY330/88,MIC,21 d,-,62.5 µM
S=C(Nc1ccc(C2CCCCC2)cc1)c1cccc(Cl)c1,MY330/88,MIC,-,-,32 µM
O=C(c1ccc(-c2ccc(Br)cc2)cc1)c1ccc([N+](=O)[O-])cc1,-,MIC,-,-,1309 µM
CCCCSc1ncnc2ccccc12,D 5/93,MIC,-,-,32 µM
CCCCc1ccc(NC(=S)c2cccc([N+](=O)[O-])c2)cc1,MY330/88,MIC,-,-,16 µM
Cc1ccc2oc(=S)n(-c3cccc(F)c3)c(=S)c2c1,MY330/88,MIC,14 d,-,8 µM
NCCC(O)C(N)CC(=O)NC1CNC(=O)C(C2CCN=C(N)N2)NC(=O)/C(=C/NC(N)=O)NC(=O)C(CO)NC(=O)C(CO)NC1=O,F,MIC,-,-,1.6 µg/mL
Fc1ccc(-n2c(=S)oc3ccc(Cl)cc3c2=S)cc1,MY330/88,MIC,14 d,-,16 µM
CN1C(NNC(=O)c2cnccn2)=NS(=O)(=O)c2ccccc21,ATCC49601,MIC,-,-,2 µg/mL
O=C(/C=C/c1ccccc1)Nc1cccc(Cn2ccnc2)c1,103317,MIC,-,-,>16 µg/mL
CC(C)N=c1cc2n(-c3ccc(Cl)cc3)c3ccccc3nc-2cc1Nc1ccc(Cl)cc1,IWGMT49,MIC,-,broth dilution,0.06 µg/mL
CCCSc1cc(C(N)=S)cc(Cl)n1,80/72,MIC,-,-,250 µM
CC(C)c1ccc(NC(=S)c2cccc(Br)c2)cc1,MY330/88,MIC,-,-,32 µM
O=C(N[C@@H](Cc1ccccc1)c1cnc(-c2ccc([N+](=O)[O-])cc2)[nH]1)OCc1ccccc1,MY330/88,MIC,21 d,-,>62.5 µM
O=c1oc2ccc(Br)cc2c(=S)n1-c1ccc(Br)cc1,MY330/88,MIC,14 d,-,32 µM
Cc1c(CN2CCN(C)CC2)cc(-c2ccc(Cl)cc2)n1-c1ccc(Cl)cc1,14 strains,MIC,-,-,0.4–3.1 µg/mL
CCCSc1nnnn1-c1cccc(C)c1,80/72,MIC,-,-,500 µM
O=c1oc2ccc([N+](=O)[O-])cc2c(=O)n1-c1cccc(F)c1,CNCTC MY330/88,MIC,-,-,250 µM
CCSc1nnnn1-c1c(C)cc(C)cc1C,80/72,MIC,-,-,>1000 µM
COc1ccc2oc(=S)n(-c3ccc(Cl)cc3)c(=S)c2c1,MY330/88,MIC,14 d,-,62.5 µM
O=C(c1ccccc1)c1ccc(-c2ccc(Br)cc2)cc1,-,MIC,-,-,742 µM
CSc1cc(C(N)=O)cc(Br)n1,80/72,MIC,-,-,>1000 µM
O=C(Nc1ccc2ccc3cccnc3c2n1)c1ccccc1,SN 304,MIC,-,-,2 µg/mL
CCCCc1ccc(NC(=S)c2cccc(C)c2)cc1,MY330/88,MIC,-,-,32 µM
O=C(c1ccc(I)cc1)c1ccc(-c2ccc(Br)cc2)cc1,-,MIC,-,-,539 µM
CCSc1nnnn1-c1ccc(C)cc1,80/72,MIC,-,-,1000 µM
O=C(NC1=NS(=O)(=O)c2ccccc2N1c1ccccc1)c1ccc(Cl)nc1,ATCC49601,MIC,-,-,>16 µg/mL
COc1ccc(-n2c(=O)oc3ccc(Cl)cc3c2=O)cc1,CNCTC MY330/88,MIC,-,-,31 µM
Cc1c(CN2CCSCC2)cc(-c2ccccc2)n1-c1ccc(F)cc1,103317,MIC,-,-,2 µg/mL
CN1CCN(Cc2cccc(NC(=O)c3ccc(Cl)cc3)c2)CC1,103317,MIC,-,-,>16 µg/mL
O=C(NNC1=NS(=O)(=O)c2ccccc2N1c1ccccc1)c1cnccn1,ATCC49601,MIC,-,-,>16 µg/mL
S=C(Nc1ccc(C2CCCCC2)cc1)c1ccccc1,MY330/88,MIC,-,-,32 µM
CCc1cn(C2OC(COC(C)=O)C(OC(C)=O)C2F)c(=O)[nH]c1=O,ATCC 25291,MIC35,-,resazurin,100 µg/mL
NC(=Nc1nc(-c2ccccn2)cc2ccccc12)c1ccccn1,SN 304,MIC,-,-,2 µg/mL
CC(C)(C)c1cc(C(C)(C)C)c2oc(Cc3ccc(O)cc3)nc2c1,MY330/88,MIC,-,-,500 µM
O=C(NNC1=NS(=O)(=O)c2ccccc2N1c1ccccc1)c1cccnc1,ATCC49601,MIC,-,-,>16 µg/mL
N/C(=N\NC(CC(=O)c1cccc(Cl)c1)c1ccccn1)c1ccccn1,485,MIC,-,-,80 µg/mL
O=c1oc2ccc(F)cc2c(=S)n1-c1ccc(C(F)(F)F)cc1,MY330/88,MIC,21 d,-,32 µM
CN1C(NNC(=O)c2cccnc2)=NS(=O)(=O)c2ccc(Cl)cc21,ATCC49601,MIC,-,-,>16 µg/mL
CCc1cn(C2OC(CO)CC2F)c(=O)[nH]c1=O,ATCC 25291,MIC25,-,resazurin,100 µg/mL
CN1CCN(Cc2cccc(NC(=O)c3ccc(-c4ccccc4)cc3)c2)CC1,103317,MIC,-,-,8 µg/mL
N/C(=N\NC(CC(=O)c1ccc(-c2ccccc2)cc1)c1ccncc1)c1ccccn1,485,MIC,-,-,8 µg/mL
NC(=Nc1ccc2ccc3cccnc3c2n1)c1ccccn1,SN 304,MIC,-,-,8 µg/mL
CCSc1cc(C(N)=S)cc(Cl)n1,80/72,MIC,-,-,250 µM
CC(C)[C@H](NC(=O)OCc1ccccc1)c1cnc(-c2ccc([N+](=O)[O-])cc2)[nH]1,MY330/88,MIC,14 d,-,>125 µM
CCCCCCCCCCCCCCCCSc1ncnc2ccccc12,D 5/93,MIC,-,-,>1000 µM
O=C(/C=C/c1ccccc1)Nc1ccc(Cn2ccnc2)cc1,103317,MIC,-,-,>16 µg/mL
Cc1c(CN2CCN(C)CC2)cc(-c2ccccc2)n1-c1ccccc1,103317,MIC,-,-,32 µg/mL
Cc1ccc(C(=O)CC(N/N=C(\N)c2ccccn2)c2ccccn2)cc1,485,MIC,-,-,80 µg/mL
C[C@@H]([C@H](NC(=O)[C@H](CC1CCCCC1)NC(=O)N[C@@H](Cc1c[nH]c2ccccc12)C(=O)NCC(C)(C)C)C(=O)NC[C@H]1C[C@@H](O)[C@H](n2ccc(=O)[nH]c2=O)O1)N(C)C(=O)CN,CA6,MIC,-,resazurin / fluorescence,0.704 µM
Cc1c(CN2CCSCC2)cc(-c2cccc3ccccc23)n1-c1ccccc1,103317,MIC,-,-,>16 µg/mL
O=C(Nc1ccccc1CN1CCOCC1)c1ccc(-c2ccccc2)cc1,103317,MIC,-,-,>16 µg/mL
CCCCSc1nnnn1-c1c(C)cc(C)cc1C,80/72,MIC,-,-,>1000 µM
CCCCc1ccc2nc(C)cc(NN)c2c1,ATCC 25291,MIC,-,-,3.13 µg/mL
C[C@H](O)[C@H]1C(=O)N2C(C(=O)O)=C(S[C@@H]3CN[C@H](C(=O)N(C)C)C3)[C@H](C)[C@H]12,-,MIC90,-,broth dilution / visual reading,>64 µg/mL
Cc1c(CN2CCN(C)CC2)cc(-c2ccccc2)n1-c1ccc(F)cc1,103317,MIC,-,-,0.4 µg/mL
O=C(N[C@@H](Cc1ccccc1)c1cnc(-c2ccccc2)[nH]1)OCc1ccccc1,MY330/88,MIC,21 d,-,>500 µM
CC(C)(C)c1cc(C(C)(C)C)c2nc(C(=O)NC(Cc3ccc(O)cc3)C(=O)O)oc2c1,MY330/88,MIC,-,-,1000 µM
CN1C(NC(=O)c2cnccn2)=NS(=O)(=O)c2cc(Cl)ccc21,ATCC49601,MIC,-,-,>16 µg/mL
C=CCSc1ncnc2ccccc12,D 5/93,MIC,-,-,250 µM
COc1ccc(-n2c(=O)oc3cc(C)ccc3c2=O)cc1,CNCTC MY330/88,MIC,-,-,31 µM
Cc1c(CN2CCN(C)CC2)cc(-c2ccccc2Cl)n1-c1ccccc1,103317,MIC,-,-,>16 µg/mL
NC(=O)c1cnc(Cl)cn1,49601,MIC,-,-,32 µg/mL
CC(C)CSc1ncnc2ccccc12,CNCTC MY80/72,MIC,-,-,250 µM
CC(C)CC(NC(=O)c1nc2c(C(C)(C)C)cc(C(C)(C)C)cc2o1)C(=O)O,MY330/88,MIC,-,-,1000 µM
O=C(Nc1ccc(Cn2ccnc2)cc1)c1ccc(Cl)cc1,103317,MIC,-,-,>16 µg/mL
Cc1ccc2oc(=S)n(-c3ccc(C(F)(F)F)cc3)c(=S)c2c1,MY330/88,MIC,14 d,-,32 µM
c1ccc(CCSc2ncnc3ccccc23)cc1,D 5/93,MIC,-,-,63 µM
CN1CCN(Cc2ccccc2NC(=O)/C=C/c2ccccc2)CC1,103317,MIC,-,-,>16 µg/mL
O=c1oc2ccc([N+](=O)[O-])cc2c(=O)n1-c1ccc(Cl)c(Cl)c1,CNCTC MY330/88,MIC,-,-,125 µM
O=C(/C=C/c1ccccc1)Nc1ccc(CN2CCOCC2)cc1,103317,MIC,-,-,8 µg/mL
Cc1c(CN2CCSCC2)cc(-c2ccccc2Cl)n1-c1ccccc1,103317,MIC,-,-,>16 µg/mL
CN1C(NNC(=O)c2cnccn2)=NS(=O)(=O)c2ccc(Cl)cc21,ATCC49601,MIC,-,-,>16 µg/mL
CO[C@H]1/C=C/O[C@@]2(C)Oc3c(C)c(O)c4c(O)c(cc(O)c4c3C2=O)NC(=O)/C(C)=C\C=C\[C@H](C)[C@H](O)[C@@H](C)[C@@H](O)[C@@H](C)[C@H](OC(C)=O)[C@@H]1C,Firenze 10,MIC,-,-,0.1 µg/mL
COc1cccc(C(N)=Nc2nc(-c3ccccn3)cc3ccccc23)c1,SN 304,MIC,-,-,0.5 µg/mL
CN1C(NNC(=O)c2cccnc2)=NS(=O)(=O)c2ccccc21,ATCC49601,MIC,-,-,>16 µg/mL
COc1cccc(C(=S)Nc2ccc(C(C)C)cc2)c1,MY330/88,MIC,-,-,32 µM
O=C(Nc1ccccc1Cn1ccnc1)c1ccc(Cl)cc1,103317,MIC,-,-,>16 µg/mL
CCCCCCCSc1cc(C(N)=S)cc(Br)n1,80/72,MIC,-,-,125 µM
CC[C@@H](C)[C@H](NC(=O)OCc1ccccc1)c1cnc(-c2ccccc2)[nH]1,MY330/88,MIC,14 d,-,>250 µM
Cc1cccc(C(=S)Nc2ccc(C(C)C)cc2)c1,MY330/88,MIC,-,-,62.5 µM

A second listing of 12 rows from above:

compound	strain or isolate	read-out	setting	method	value
O=C(c1ccc(-c2ccc(Br)cc2)cc1)c1ccc([N+](=O)[O-])cc1	-	MIC	-	-	1309 µM
Cc1c(CN2CCN(C)CC2)cc(-c2ccccc2)n1-c1ccccc1	103317	MIC	-	-	32 µg/mL
CC(C)c1ccc(NC(=S)c2cccc(Br)c2)cc1	MY330/88	MIC	-	-	32 µM
Cc1c(CN2CCSCC2)cc(-c2ccccc2Cl)n1-c1ccccc1	103317	MIC	-	-	>16 µg/mL
NC(=Nc1ccc2ccc3cccnc3c2n1)c1ccccn1	SN 304	MIC	-	-	8 µg/mL
NCCC(O)C(N)CC(=O)NC1CNC(=O)C(C2CCN=C(N)N2)NC(=O)/C(=C/NC(N)=O)NC(=O)C(CO)NC(=O)C(CO)NC1=O	F	MIC	-	-	1.6 µg/mL
O=C(NNC1=NS(=O)(=O)c2ccccc2N1c1ccccc1)c1cccnc1	ATCC49601	MIC	-	-	>16 µg/mL
CN1C(NC(=O)c2cnccn2)=NS(=O)(=O)c2cc(Cl)ccc21	ATCC49601	MIC	-	-	>16 µg/mL
Cc1c(CN2CCN(C)CC2)cc(-c2ccccc2Cl)n1-c1ccccc1	103317	MIC	-	-	>16 µg/mL
Cc1cccc(C(=S)Nc2ccc(C(C)C)cc2)c1	MY330/88	MIC	-	-	62.5 µM
CN1C(NNC(=O)c2cnccn2)=NS(=O)(=O)c2ccc(Cl)cc21	ATCC49601	MIC	-	-	>16 µg/mL
O=C(Nc1ccc2ccc3cccnc3c2n1)c1ccccc1	SN 304	MIC	-	-	2 µg/mL